Measured values published in publication PMC3989844 (Journal of pharmaceutical sciences, 2014).

How the values were obtained:
[1] = type: physicochemical
[2] = no reference given; cited from earlier work

With maraviroc the “solubility in DMS S12 PDMS relative to emtricitabine” value [1] was 100 fold, the solubility in cyclomethicone ([1]; below HPLC limit of detection, equilibrated at 18 ± 1 °C) was < 5.0 µg/mL and the “solubility in st-PDMS relative to emtricitabine” value ([1]; comparable percentage hydroxyl group values) was “up to 100 fold”. The “solubility in DMS S12” value ([1]; shake flask, equilibrated at 18 ± 1 °C) was 60000 µg/mL and the aqueous solubility [2] was 1000 µg/mL.
